Data source: PubChem BioAssay AID1259414 (Drosophila RNAi Screening Center, 2018)
Screen: 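Fly genes that alter Wolbachia amount inside host cells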 (primary screen). System: Drosophila JW18 cells infected with Wolbachia. Reagents: long dsRNA against Drosophila genes, 0.25 µg dsRNA per well of a 384-well plate. Duration: 5 days. Treatment: cells persistently infected with Wolbachia before knock-down; no added drug. Measurement: 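Imaged fluorescence in situ signal for Wolbachia 23S rRNA per DAPI-counted host cell, given as a robust z-score within each plate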. Reading the numbers: Wolbachia per cell robust z: higher = more Wolbachia per host cell than the plate typical. Rule for the call: 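Active if absolute robust z reaches 1.5 in two or more of three replicates, leaving out multi- or no-target dsRNAs, genes unexpressed in JW18 and A1 wells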.
The deposit covers about 24,000 reagents; shown is an unselected part of those with a known target gene and a result. Of all reagents, about 1,210 (5%) are marked active. 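Inactive calls also include excluded dsRNAs with several or no targets, genes unexpressed in JW18, and well A1, regardless of score.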 Unmarked entries are inactive. Reagents against one gene are numbered here. A plus sign joins genes that one reagent is predicted to hit.

target | reagent | Wolbachia per cell robust z, rep 1 | Wolbachia per cell robust z, rep 2 | Wolbachia per cell robust z, rep 3
Arv1 (ACAT-related protein required for viability 1) | 1 | 0.58 | -0.382 | 0.302
CG32163 | 1 | 0.965 | 0.263 | 0.762
CG32163 | 2 | -3.44 | -0.322 | -0.314
CG32163 | 3 | 0.675 | -1.52 | -0.359
Lip2 (Lipase 2) | 1 | -1.32 | 0.368 | -1.4
Lip2 (Lipase 2) | 2 | -0.267 | -0.318 | 0.552
CG15717 | 1 | -1.02 | 0.0529 | -1.22
CG9992 | 1 | 0.0828 | -1.11 | -0.174
CG9992 | 2 | -1.66 | -0.551 | 0.0125
inaF-B + inaF-D + inaF-C + 1 more | 1 | -1.02 | -2.05 | -0.35

The list goes on; the last 4 above are carried over.
target | reagent | Wolbachia per cell robust z, rep 1 | Wolbachia per cell robust z, rep 2 | Wolbachia per cell robust z, rep 3
CG15717 | 1 | -1.02 | 0.0529 | -1.22
CG9992 | 1 | 0.0828 | -1.11 | -0.174
CG9992 | 2 | -1.66 | -0.551 | 0.0125
inaF-B + inaF-D + inaF-C + 1 more | 1 | -1.02 | -2.05 | -0.35
CG1394 | 1 | 0.467 | 0.355 | 0.596
CG1394 | 2 | -0.127 | 0.378 | -0.721
glu (gluon) | 1 | 0.0877 | 1.3 | 0.495
glu (gluon) | 2 | 1.23 | 0.215 | 1.04
Bulli | 1 | 0.41 | 0.825 | -2.55
beta'COP (Coat Protein (coatomer) beta') | 1 | -1.21 (active) | 1.57 | 3.98
beta'COP (Coat Protein (coatomer) beta') | 2 | 1.98 (active) | 3.24 | 3.43
CG12096 | 1 | -0.981 | -1.13 | -1.1
CG12096 | 2 | 0.433 | 1.85 | 1.36
CG1137 | 1 | -1.65 | 1.59 | 0.479
CG1137 | 2 | -0.126 | 0.867 | 1.06
sbm (sobremesa) | 1 | -0.292 | 0.327 | 0.262
CG8569 | 1 | 0.779 | 0.809 | 0.225
Fer2 (48 related 2) | 1 | 1.45 | 0.234 | -0.051
CG12523 | 1 | 0.267 | 0.0781 | -1.24
CG12523 | 2 | -0.11 | -0.482 | -0.675
CG14451 | 1 | 0.477 | -0.415 | -1.25
CG14451 | 2 | 0.0322 | -0.368 | -1.3
